Results of unrelated studies side by side (data: NIAID ChemDB).

Shared fields: growth or infection tests; agent: HIV-1; cell line: MT-4; endpoint: EC95

ECn: concentration that inhibits the pathogen or its effect by n%. a–b is a range or a potency band. An empty or dashed field is not shown. Conditions beyond the fields shown may differ between rows.

compound,strain or isolate,mutations,read by,conditions,result
Cc1cn([C@H]2C[C@H](N=[N+]=[N-])[C@@H](CO)O2)c(=O)[nH]c1=O,rA17,-,p24,-,0.025 µM
O=C1c2c(O)c(=O)n(C3CCC3)c(=O)n2CCN1Cc1ccc(F)cc1,-,-,p24,-,<10 µM
CCCc1nnc(C[C@H](C[C@H](O)CN2CCN(C(C)(C)c3ncc(-c4ccc(Cl)cc4)o3)C[C@H]2C(=O)NCC(F)(F)F)C(=O)N[C@H]2c3ccccc3OC[C@H]2O)o1,V-18 Clinical isolate,PR-L10I M36I N37D M46I R57K L63P A71V G73S I84V L90M I93L,p24,-,0.063 µM
CN(C)S(=O)(=O)N(C)C1CCn2c1nc(C(=O)NCc1ccc(F)cc1)c(O)c2=O,IIIB,-,p24 / ELISA,50% human serum,>1 µM
O=C1c2c(O)c(=O)n(C34CC5CC(CC(O)(C5)C3)C4)c(=O)n2CCN1Cc1ccc(F)cc1,-,-,p24,-,<10 µM
CCc1cc(NCc2nc3c(C)ccc(C)c3o2)c(=O)[nH]c1C,RUTZ,-,p24,-,0.05 µM
CN(C)Cc1nc(C(=O)NCc2ccc(F)cc2)c(O)c(=O)[nH]1,IIIB,-,p24,50% human serum,>1 µM
O=c1[nH]cnc2c1ncn2[C@H]1CC[C@@H](CO)O1,rA17,-,p24,-,50 µM
O=C1Nc2ccc(Cl)cc2[C@@](C#Cc2ccccn2)(C2CC2)N1,IIIB,-,-,-,0.025 µM
CN1C[C@H](O)C(C)(C)Cn2c(c3c(c(O)c2=O)C(=O)N(Cc2ccc(F)c(Cl)c2)CC3)C1=O,-,-,p24,-,0.015 µM
CC(C)(C)OC(=O)C(C)(C)n1c(=O)c(O)c2n(c1=O)CCN(Cc1ccc(F)cc1)C2=O,-,-,p24,-,<10 µM
CC(C)(C)NC(=O)[C@@H]1CN(C(C)(C)c2cccnc2)CCN1C[C@@H](O)C[C@@H](Cc1ccccc1)C(=O)N[C@H]1c2ccccc2C[C@H]1O,NL4-3,-,-,-,0.05 µM
Cc1cc(C)c(-n2nnnc2SCC(=O)Nc2ccc([N+](=O)[O-])cc2)c(C)c1,-,-,p24,10% FBS,>5 µM
O=C1Nc2ccc(Cl)cc2C(C#Cc2ccccn2)(C2CC2)N1,IIIB,-,-,-,0.03 µM
CN1CCC[C@H]1c1nc(C(=O)NCc2ccc(F)cc2)c(O)c(=O)n1C,IIIB,-,p24 / ELISA,50% human serum,>1 µM
CC(C)(c1ncc(-c2ccc(Cl)cc2)o1)N1CCN(C[C@@H](O)C[C@@H](Cc2cc3cnccc3s2)C(=O)N[C@H]2c3ccccc3OC[C@H]2O)[C@H](C(=O)NCC(F)(F)F)C1,NL4-3,-,p24,-,<0.0078 µM
Nc1cccc(CN2C(=O)N(Cc3cccc(N)c3)[C@H](Cc3ccccc3)[C@H](O)[C@@H](O)[C@H]2Cc2ccccc2)c1,PR-WT,-,p24,-,0.1–0.4 µM
CC(C)=CCN1Cc2cc(Cl)cc3[nH]c(=S)n(c23)C[C@@H]1C,-,RT-M41L T215Y,-,-,0.4 µM
C[C@H]1C[C@@H](c2nc(C(=O)NCc3ccc(F)cc3)c(O)c(=O)n2C)N(C)C1,IIIB,-,p24 / ELISA,10% FBS,>1 µM
O=C(NCc1ccc(F)cc1)c1nc[nH]c(=O)c1O,-,-,p24,10% FBS,>10 µM
CC(C)(c1ncc(-c2ccc(Cl)cc2)o1)N1CCN(C[C@@H](O)C[C@@H](Cc2cc3ccncc3o2)C(=O)N[C@H]2c3ccccc3OC[C@H]2O)[C@H](C(=O)NCC(F)(F)F)C1,4X (PR M46I L63P V82T I84V),PR-M46I L63P V82T I84V,p24,-,<0.0078 µM
O=C(NCc1ccc(F)cc1)c1nc(C2CCNCC2)[nH]c(=O)c1O,IIIB,-,p24,50% human serum,>10 µM
CC(C)(C)NC(=O)[C@@H]1C[C@@H]2CCCC[C@@H]2CN1C[C@@H](O)[C@H](Cc1ccccc1)NC(=O)[C@H](CC(N)=O)NC(=O)c1ccc2ccccc2n1,PR-WT,-,p24,-,0.025–0.1 µM
Cc1ccncc1-c1ccc(C[C@H](C[C@H](O)CN2CCN(Cc3csc(-c4ccc(F)cc4)n3)C[C@H]2C(=O)NCC(F)(F)F)C(=O)N[C@H]2c3ccccc3OC[C@H]2O)o1,NL4-3,-,p24,-,0.0078 µM
CCc1cc(NCc2nc3c(Cl)ccc(Cl)c3o2)c(=O)[nH]c1C,MN,-,p24,-,0.1 µM
O=C1c2c(O)c(=O)n(C3CN4CCC3CC4)c(=O)n2CCN1Cc1ccc(F)cc1,-,-,p24,-,<10 µM
CC(C)(C)NC(=O)[C@@H]1C[C@@H]2CCCC[C@@H]2CN1C[C@@H](O)[C@H](Cc1ccccc1)NC(=O)O[C@H]1CO[C@H]2OCC[C@H]21,IIIB,-,p24,-,0.046 µM
CCc1cc(CCc2nc3ccccc3o2)c(=O)[nH]c1C,IIIB,-,p24,-,0.05 µM
Cc1ccc(Cl)cc1-n1nnnc1SCC(=O)Nc1ccccc1[N+](=O)[O-],-,-,p24,10% FBS,0.063 µM
CC(C)(C)NC(=O)[C@@H]1CN(S(C)(=O)=O)CCN1C[C@@H](O)C[C@@H](Cc1ccccc1)C(=O)N[C@H]1c2ccccc2C[C@H]1O,IIIB,-,p24,-,0.4 µM
Cc1cn([C@H]2C[C@H](N=[N+]=[N-])[C@@H](CO)O2)c(=O)[nH]c1=O,IIIB,-,p24 / ELISA,-,0.025 µM
CC(=O)N1CCOCC1c1nc(C(=O)NCc2ccc(F)cc2)c(O)c(=O)n1C,IIIB,-,p24 / ELISA,10% FBS,>1 µM
CCCc1nnc(C[C@H](C[C@H](O)CN2CCN(C(C)(C)c3ncc(-c4cncc(OC)c4)o3)C[C@H]2C(=O)NCC(F)(F)F)C(=O)N[C@H]2c3ccccc3OC[C@H]2O)o1,V-18 Clinical isolate,PR-L10I M36I N37D M46I R57K L63P A71V G73S I84V L90M I93L,p24,-,>1 µM
CC(C)(C)NC(=O)[C@@H]1C[C@@H]2CCCC[C@@H]2CN1C[C@@H](O)[C@H](Cc1ccccc1)NC(=O)[C@H](CC(N)=O)NC(=O)c1ccc2ccccc2n1,NL4-3,PR-M46I L63P V82T,p24,-,0.025 µM
O=C(NCc1ccc(F)cc1)c1nc(-c2cccs2)[nH]c(=O)c1O,-,-,p24,10% FBS,>10 µM
Cc1cccc(C)c1CNC(=O)[C@H]1N(C(=O)[C@@H](O)C[C@@H](Cc2ccccc2)C(=O)N[C@H]2c3ccccc3C[C@H]2O)CSC1(C)C,-,PR-K60C,p24,-,0.125 µM
CCc1cc(SCc2nc3c(Cl)ccc(Cl)c3o2)c(=O)[nH]c1C,IIIB,-,p24,-,0.0375 µM
CN1CCOCC1c1nc(C(=O)NCc2ccc(F)c(Cl)c2)c(O)c(=O)n1C,IIIB,-,p24 / ELISA,50% human serum,0.031 µM
CN(C)C(=O)C(=O)N(C)C1CCn2c1nc(C(=O)NCc1ccc(F)cc1)c(O)c2=O,IIIB,-,p24 / ELISA,50% human serum,>1 µM
CC(C)(c1ncc(-c2ccc(Cl)cc2)o1)N1CCN(C[C@@H](O)C[C@@H](Cc2cc3c(Cl)cncc3s2)C(=O)N[C@H]2c3ccccc3OC[C@H]2O)[C@H](C(=O)NCC(F)(F)F)C1,NL4-3,-,p24,-,<0.0078 µM
CN(CCc1nc(C(=O)NCc2ccc(F)cc2)c(O)c(=O)[nH]1)Cc1ccccc1,IIIB,-,p24,10% FBS,10 µM
Cc1cc(C)c(-n2nnnc2SCC(=O)Nc2ccc([N+](=O)[O-])cc2C)c(C)c1,-,-,p24,50% human serum,>5 µM
O=C(NCc1ccc(F)cc1)c1nc(C2CCCNC2)[nH]c(=O)c1O,IIIB,-,p24,10% FBS,>10 µM
Cc1cc(C)c(-n2nnnc2SCC(=O)Nc2ccc(OCCCN(C)C)cc2Cl)c(C)c1,-,-,p24,50% human serum,0.2 µM
CN1CCS(=O)CC1c1nc(C(=O)NCc2ccc(F)cc2)c(O)c(=O)n1C,IIIB,-,p24 / ELISA,50% human serum,>1 µM
CCCc1nnc(C[C@H](C[C@H](O)CN2CCN(C(C)(C)c3ncc(-c4ccc(F)cc4)o3)C[C@H]2C(=O)NCC(F)(F)F)C(=O)N[C@H]2c3ccccc3OC[C@H]2O)o1,K-60 Clinical isolate,PR-L10I M46I I54V Q58E L63P I64V V77I V82F I84V L90M I93L,p24,-,0.016 µM
O=C(NCc1ccccc1)c1nc(-c2ccccc2)[nH]c(=O)c1O,-,-,p24,50% human serum,>10 µM
CC(C)(C)NC(=O)[C@@H]1C[C@@H]2CCCC[C@@H]2CN1C[C@@H](O)[C@H](Cc1ccccc1)NC(=O)O[C@@H]1CO[C@@H]2CCO[C@@H]21,IIIB,-,p24,-,>0.2 µM
CC(C)(c1ncc(-c2ccc(F)cc2)o1)N1CCN(C[C@@H](O)C[C@@H](Cc2nnco2)C(=O)N[C@H]2c3ccccc3OC[C@H]2O)[C@H](C(=O)NCC(F)(F)F)C1,Q-60 Clinical isolate,PR-L10I N37S R41K M46I I54V I62V L63P A71V V77I V82A L90M I93L,p24,-,0.031 µM
C[C@@H]1C[C@@H](c2nc(C(=O)NCc3ccc(F)cc3)c(O)c(=O)n2C)N(C)C1,IIIB,-,p24 / ELISA,10% FBS,>1 µM
CN(C)C(=O)C(=O)N1CCOCC1Cn1c(=O)c(O)c2n(c1=O)CCN(Cc1ccc(F)cc1)C2=O,-,-,p24,-,<10 µM
CC(C)(c1ncc(-c2ccc(Cl)cc2)o1)N1CCN(C[C@@H](O)C[C@@H](Cc2nnc(-c3ccccc3)o2)C(=O)N[C@H]2c3ccccc3OC[C@H]2O)[C@H](C(=O)NCC(F)(F)F)C1,K-60 Clinical isolate,PR-L10I M46I I54V Q58E L63P I64V V77I V82F I84V L90M I93L,p24,-,≤0.008 µM
O=C(CSc1nnnn1-c1ccc(Cl)c(Cl)c1)Nc1ccccc1[N+](=O)[O-],-,-,p24,50% human serum,>5 µM
CC(C)(c1ncc(-c2ccc(Cl)cc2)o1)N1CCN(C[C@@H](O)C[C@@H](Cc2cc3ccncc3s2)C(=O)N[C@H]2c3ccccc3OC[C@H]2O)[C@H](C(=O)NCC(F)(F)F)C1,NL4-3,-,p24,-,<0.0078 µM
COc1cncc(-c2cnc(C(C)(C)N3CCN(C[C@@H](O)C[C@@H](Cc4nnc(-c5ccccc5)o4)C(=O)N[C@H]4c5ccccc5OC[C@H]4O)[C@H](C(=O)NCC(F)(F)F)C3)o2)c1,NL4-3 WT,-,p24,-,0.125 µM
CC(C)(C)NC(=O)[C@@H]1C[C@@H]2CCC[C@@H]2CN1C[C@@H](O)[C@H](Cc1ccccc1)NC(=O)O[C@H]1CCS(=O)(=O)C1,IIIB,-,p24,-,>0.2 µM
CC(C)(C)NC(=O)[C@@H]1C[C@H](Oc2ccc3ccccc3c2)CN1C[C@@H](O)C[C@@H](Cc1ccccc1)C(=O)N[C@H]1c2ccccc2C[C@H]1O,IIIB,-,p24,-,>0.4 µM
O=C(CSc1nnnn1-c1cc(Cl)ccc1Cl)Nc1ccccc1[N+](=O)[O-],-,-,p24,50% human serum,1.25 µM

A second listing of 5 rows from above:

compound	strain or isolate	mutations	read by	conditions	result
O=C1Nc2ccc(Cl)cc2C(C#Cc2ccccn2)(C2CC2)N1	IIIB	-	-	-	0.03 µM
CN(C)S(=O)(=O)N(C)C1CCn2c1nc(C(=O)NCc1ccc(F)cc1)c(O)c2=O	IIIB	-	p24 / ELISA	50% human serum	>1 µM
CCc1cc(NCc2nc3c(C)ccc(C)c3o2)c(=O)[nH]c1C	RUTZ	-	p24	-	0.05 µM
CC(C)(C)NC(=O)[C@@H]1CN(S(C)(=O)=O)CCN1C[C@@H](O)C[C@@H](Cc1ccccc1)C(=O)N[C@H]1c2ccccc2C[C@H]1O	IIIB	-	p24	-	0.4 µM
O=C(NCc1ccc(F)cc1)c1nc(-c2cccs2)[nH]c(=O)c1O	-	-	p24	10% FBS	>10 µM